Results reported in paper PMC9453709, “Structural basis of a two-antibody cocktail exhibiting highly potent and broadly neutralizing activities against SARS-CoV-2 variants including diverse Omicron sublineages” (Cell Discovery, 2022).

Legend:
[1] = biological target: SARS-CoV-2 wild-type receptor-binding domain (WT-RBD) (Severe acute respiratory syndrome …, UniProt P0DTC2); assay: cell-based or functional assay
[2] = biological target: SARS-CoV-2 wild-type spike N-terminal domain (WT-NTD) (SARS-CoV-2 wild type (WIV04/Wuhan-Hu-1), UniProt P0DTC2); assay: ELISA; details: both partners purified

B1: D2, recombinant human immunoglobulin G1 (IgG1) (antibody, V domains shown)
VH: EVQLVESGGGLVQPGRSLTLSCGASGFTFEDYAMHWVRQAPGKGLEWVSGIDWNSGVIGYADSVKGRFIISRDNAKNSLYLHMRSLTAEDTALYYCAKDVYSESGSGSYYDYWGQGTLVTVSS
VL: QSVLTQPPSVSAAPGQKVAISCSGSTSNIGDNFVSWYQQFPGTAPKLLLYDDARRPSGIPDRFSGSKSGTSATLGITGLQTGDEAVYFCSTWDNSLNVVLFGGGTKLTVL
IC50 of neutralisation of authentic SARS-CoV-2 in Vero E6 cells [1]: 0.14 µg/mL
binding result [2]: no binding (tested: 5 μg/mL)
